Laboratory results reported in publication PMC5279734.

Assays:
O=C(O)CC(=O)C(=O)O = experiment: purified protein; conditions: pH 7.2
C=C(OP(=O)(O)O)C(=O)O = experiment: purified protein; conditions: pH 7.2

Q: With (Mycobacterium tuberculosis H37Rv) as the substance, how does the Km (O=C(O)CC(=O)C(=O)O) read?
A: 13.8 ± 4.6 µM

Q: What about the Km (C=C(OP(=O)(O)O)C(=O)O) of the same substance?
A: 414.1 ± 77.29 µM
